Source: PubChem BioAssay AID504761 (Drosophila RNAi Screening Center, 2011)

Test: 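Genome-wide fly cell screen for genes dengue virus requires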 (primary screen)
System: D.Mel-2 cells from Drosophila
Knock-down reagent: long dsRNA against Drosophila genes
Conditions: infection with dengue virus type 2; dose and infection time not stated
Read-out: 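Per well on two replicate plates, imaging gave the percent of cells positive for viral envelope protein, ranked by infection, and a nuclear count of cells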
Direction: infection score: higher = more virus-infected cells; cell count: higher = more cells in the well
Call rule: 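Very low infection ranking in both replicate wells (chance probability at most 0.065), then a retest showing infection dropped 1.5-fold or more at p below 0.05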
Calls: active = confirmed: knock-down lowers infection; inactive = not picked or not confirmed
The screen tested about 22,000 reagents; below is a random part of those with a known target gene and a result. Over the whole deposit, 116 (0.52%) got an active call. 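Calls depend on retest data that are not deposited; infection was ranked per plate without normalising between plates; the unit of the infection score is not given.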 The raw values are shown without normalisation. Unmarked entries are inactive. A plus sign joins genes that one reagent is predicted to hit. Further read-outs or replicates are left out here. Not stated in the record: the amount of reagent, the time to read-out.

| predicted target | amplicon | infection score, replicate 1 | infection score, replicate 2 | cell count, replicate 1 |
| --- | --- | --- | --- | --- |
| CG14104 | DRSC10106 | 1.68 | 3.09 | 6423 |
| Vps13 (Vacuolar protein sorting 13) | DRSC06817 | 15.2 | 3.74 | 5728 |
| Vps13 (Vacuolar protein sorting 13) | DRSC29275 | 0.41 | 20.4 | 485 |
| CG11741 | DRSC14367 | 10.5 | 8.84 | 6737 |
| CG33502 + CG32857 + CG32500 | DRSC20817 | 1.2 | 5.2 | 6406 |
| CG33502 + CG32857 + CG32500 | DRSC21038 | 2.34 | 0.97 | 5728 |
| Cog4 (Component of oligomeric golgi complex 4) | DRSC03057 | 9.69 | 24.4 | 6577 |
| Ugt37B1 (UDP-glycosyltransferase family 37 member B1) | DRSC03225 | 9.77 | 12.2 | 6419 |
| CG14089 | DRSC10093 | 2.55 | 1.09 | 6396 |
| CG14089 | DRSC24848 | 0.92 | 2.02 | 6335 |
| CG11983 | DRSC14458 | 3.25 | 15.6 | 6713 |
| chif (chiffon) | DRSC03508 | 10.8 | 4.92 | 6233 |
| Ubc4 (Ubiquitin conjugating enzyme 4) | DRSC11312 | 7.46 | 7.58 | 6369 |
| RhoU | DRSC17803 | 7.08 | 4.74 | 6311 |
| RhoU | DRSC17804 | 7.83 | 4.46 | 6526 |
| RhoU | DRSC22159 | 24.8 | 6.12 | 5502 |
| RhoU | DRSC22396 | 1.89 | 3.24 | 5861 |
| RhoU | DRSC25197 | 24.1 | 15.8 | 6200 |
| RhoU | DRSC28919 | 13.4 | 15.1 | 5516 |
| how (held out wings) | DRSC25008 | 1.23 | 1.53 | 6525 |
| CG7309 | DRSC03045 | 1.84 | 1.01 | 6562 |
| CG7309 | DRSC27252 | 15.3 | 9.04 | 6099 |
| pall (pallbearer) | DRSC10364 | 18.6 | 11.7 | 4213 |
| CG42272 | DRSC08766 | 4.14 | 2.4 | 4763 |
| CG42272 | DRSC22502 | 3.04 | 7.43 | 5430 |
| CG42272 | DRSC23490 | 4.58 | 17.5 | 6828 |
| CG42272 | DRSC27670 | 2.38 | 7.34 | 6231 |

Quoted from the listing (2 entries):
| predicted target | amplicon | infection score, replicate 1 | infection score, replicate 2 | cell count, replicate 1 |
| --- | --- | --- | --- | --- |
| CG14089 | DRSC24848 | 0.92 | 2.02 | 6335 |
| CG11983 | DRSC14458 | 3.25 | 15.6 | 6713 |

More reagents follow:
| predicted target | amplicon | infection score, replicate 1 | infection score, replicate 2 | cell count, replicate 1 |
| --- | --- | --- | --- | --- |
| Dic3 | DRSC06058 | 7.55 | 11.8 | 6076 |
| ATPsynE (ATP synthase, subunit E) | DRSC15476 | 13.7 | 21.8 | 5326 |
| ATPsynE (ATP synthase, subunit E) | DRSC30103 | 8.89 | 16 | 6066 |
| Sap-r (Saposin-related) | DRSC16849 | 5.59 | 6.56 | 6354 |
| Sap-r (Saposin-related) | DRSC21916 | 2.11 | 21.3 | 6296 |
| Sap-r (Saposin-related) | DRSC27246 | 9.39 | 3.28 | 6105 |
| CG31279 | DRSC13158 | 3 | 1.38 | 6164 |
| CG7201 | DRSC10786 | 1.54 | 1.64 | 5374 |
| Pk34A (Protein kinase at 34A) | DRSC03398 | 7.92 | 1.42 | 6008 |
| Pk34A (Protein kinase at 34A) | DRSC28021 | 17.3 | 16.9 | 4414 |
| CG42750 | DRSC03019 | – | – | 481 |
| CG42750 | DRSC03024 | 11.8 | 5.33 | 6315 |
| CG42750 | DRSC21414 | 1.67 | 0.73 | 6220 |
| CG42750 | DRSC23218 | 3.19 | 5.16 | 6529 |
| CG42750 | DRSC28148 | 27.1 | 15.2 | 6144 |
| CG42750 | DRSC28791 | 4.04 | 5.55 | 5573 |
